Test results: patent publication US20110052564

How the values were obtained:
crossbeta E2 form SEC-E2 = crossbeta E2 form SEC-E2 (UniProt P21530)
crossbeta E2 form cE2-B = crossbeta E2 form cE2-B (UniProt P21530)

tissue type plasminogen activator (tPA; Actilyse, Boehringer-Ingelheim)
tPA/plasminogen activating potency at 50 ug/ml E2 (crossbeta E2 form SEC-E2): with SEC-E2 only one third of this activity remains | tPA/plasminogen activating potency at 50 ug/ml E2 (crossbeta E2 form cE2-B): an increase in tPA/plasminogen activating potency is observed for cE2-B
